Results from paper PMC11697409 (Biotechnology Reports, 2024).

Test: general procedure: Fmoc solid-phase peptide synthesis; Fmoc-Rink-MBHA resin (0.71 mmol/g); DIC/Oxima
Details: whole synthesis, 220 nm

LYVAKNKYGLGKL-NH2
final HPLC purity: >99%

TTLRPKLKSK-NH2
final HPLC purity: >99%
